Anti-infective test results gathered from many reports (values: NIAID ChemDB through PubChem).

Common to all: tests in culture; species: Mycobacterium bovis

ECn is the concentration giving n% inhibition of infection, replication or growth.

| smiles | strain or isolate | read by | read-out | dose | result |
|---|---|---|---|---|---|
| Oc1cccc2cccnc12 | BCG |  | MIC |  | 2 µM |
| C=CC1=C(C)C2=Cc3c(C=C)c(C)c4[n]3[Ga][n]3c(c(C)c(CCC(=O)O)c3=CC3=NC(=C4)C(C)=C3CCC(=O)O)=CC1=N2 | BCG |  | MIC |  | 0.4 µg/mL |
| CCC1CN(c2c(F)cc3c(=O)c(C(=O)O)cn(C4CC4)c3c2OC)CCN1 | BCG-CX1 (D94N) |  | MIC |  | 0.61 µg/mL |
| CO[C@H]1/C=C/O[C@@]2(C)Oc3c(C)c(O)c4c(O)c(c(/C=N/N5CCN(C)CC5)c(O)c4c3C2=O)NC(=O)/C(C)=C\C=C\[C@H](C)[C@H](O)[C@@H](C)[C@@H](O)[C@@H](C)[C@H](OC(C)=O)[C@@H]1C | SB0133 | resazurin | MIC |  | 2 µg/mL |
| CCN1CCN(c2c(F)cc3c(=O)c(C(=O)O)cn(C4CC4)c3c2OC)CC1 | BCG-KD1295 (WILD TYPE) |  | MIC |  | 0.058 µg/mL |
| Cn1c2c3ccccc3nc-2cc2ccccc21 | BCG |  | MIC |  | 12.5 µg/mL |
| CC1=CCC2C(C1)C2(C)C | AN5 | resazurin | MIC |  | 7.29 µg/mL |
| Clc1ccc(COC(Cn2ccnc2)c2ccc(Cl)cc2Cl)c(Cl)c1 |  |  | EC50 |  | >1 µM |
| C=CC(C)(/C=C/c1ccc(O)cc1)CCC=C(C)C | BCG |  | MIC |  | 21.4 µg/mL |
| O=C(O)c1ccc(N=Cc2c(O)ccc3ccccc23)cc1O | BCG |  | inhibition | 26 µM | 90% |
| Clc1ccc(COC(Cn2ccnc2)c2ccc(Cl)cc2Cl)cc1 |  |  | EC50 |  | ≤1 µM |
| CCOC(=O)N1CCN(c2ccc(C3CC(c4ccc([N+](=O)[O-])o4)=NO3)cc2)CC1 | BCG |  | MIC |  | 0.003 µg/mL |
| O=c1ccc2ccc(O)cc2o1 | BCG | broth dilution | MIC |  | 62.5 µg/mL |
| CC1CNCCN1S(=O)(=O)c1cccc2cnccc12 | BCG |  | inhibition | 20 µg/mL | 60% |
| Cc1ncc([N+](=O)[O-])n1CCO |  |  | EC50 |  | >100 µM |
| O=C(O)c1ccc(N=Cc2ccc(O)c(O)c2O)cc1O | BCG |  | EC75 |  | 27 µM |
| Cc1nc2c([nH]1)c(=O)n(C)c(=O)n2Cc1ccco1 |  |  | EC50 |  | >100 µM |
| NNC(=O)c1ccncc1 | BCG | fluorescence | MIC |  | 0.31 µM |
| c1ccc(-c2ccc(C(c3ccccc3)n3ccnc3)cc2)cc1 |  |  | EC50 |  | >1 µM |
| O=C(O)c1ccc(N=Cc2cccc(O)c2O)cc1O | BCG |  | inhibition | 29 µM | 20% |
| O=C(c1ccc([N+](=O)[O-])o1)N1CCc2cc(N3CCN(Cc4ccccc4)CC3)ccc2C1 | BCG |  | MIC |  | 0.006 µg/mL |
| CCC(C)n1ncn(-c2ccc(N3CCN(c4ccc(OC[C@H]5CO[C@](Cn6cncn6)(c6ccc(Cl)cc6Cl)O5)cc4)CC3)cc2)c1=O |  |  | EC50 |  | >100 µM |
| O=[N+]([O-])c1cn2c(n1)OC[C@@H](OCc1ccc(OC(F)(F)F)cc1)C2 | rBCG-lux |  | MBC |  | 2 µg/mL |
| CCC1CN(c2cc3c(cc2F)c(=O)c(C(=O)O)cn3C2CC2)CCN1 | BCG-CX2 (A90V D94N) |  | MIC |  | 14 µg/mL |

For reference, 3 entries again:

smiles | strain or isolate | read by | read-out | dose | result
O=C(O)c1ccc(N=Cc2c(O)ccc3ccccc23)cc1O | BCG |  | inhibition | 26 µM | 90%
C=CC1=C(C)C2=Cc3c(C=C)c(C)c4[n]3[Ga][n]3c(c(C)c(CCC(=O)O)c3=CC3=NC(=C4)C(C)=C3CCC(=O)O)=CC1=N2 | BCG |  | MIC |  | 0.4 µg/mL
Clc1ccc(COC(Cn2ccnc2)c2ccc(Cl)cc2Cl)cc1 |  |  | EC50 |  | ≤1 µM

Conditions beyond the fields shown may differ between rows. Percent inhibition refers to the dose given; in toxicity tests it is the harm to the cells. Blank or dashed fields: not listed here.